“Also recorded” adds a separate entry of the source. Like-named read-outs stand apart in the source and are kept apart here.
Test system: A/PR/8/34 (H1N1)
Assay type: in vivo, influenza A virus

Which results are given for `O=C1c2c(O)c(=O)ccn2N([C@@H]2c3ccccc3SCc3c2ccc(F)c3F)[C@@H]2COCCN12` [baloxavir acid]?
HI Titer ± SD, Calculated (1.6 mg/kg, 96 h before infection, 28 days post-infection): 368 ± 152; HI Titer ± SD, Calculated (3.2 mg/kg, 72 h before infection, 30 days post-infection): 320 ± 277; Antibody response (10 mg/kg, 24 h before infection): few antibody responses were observed; also recorded: no increase in antibody titre was observed; HI Titer ± SD, Calculated (10 mg/kg, 24 h before infection, 21 days post-infection): 20

Source: article PMC10675732 (Viruses, 2023)
